A mixed list of measured activities; the numbers were collected in NIAID ChemDB.

Common to all: growth or infection tests; agent: Candida albicans

Blank or dashed fields: not listed here.

smiles | read by | strain | endpoint | result
C[C@H]1[C@H](O)[C@@H](C)/C=C/C=C/C=C/C=C/C=C/C=C/C=C/[C@H](O[C@@H]2O[C@H](C)[C@@H](O)[C@H](N)[C@@H]2O)C[C@@H]2O[C@](O)(C[C@@H](O)C[C@@H](O)CC[C@H](O)[C@@H](O)C[C@@H](O)CC(=O)O[C@H]1C)C[C@H](O)[C@H]2C(=O)O |  | 13 strains (fluconazole-resistant) | MIC90 | 0.25 µg/mL
NC(N)=Nc1ccc(-c2cc3cc(N=C(N)N)ccc3s2)cc1 |  |  | MIC | 10 µg/mL
COC1CC2CCC(C)C(O)(O2)C(=O)C(=O)N2CCCCC2C(=O)OC(C(C)CC2CCC(O)C(OC)C2)CC(=O)C(C)/C=C(\C)[C@@](O)(c2ccc(C)s2)C(OC)C(=O)C(C)CC(C)/C=C/C=C/C=C/1C |  | WILD TYPE | MFC | >100 µg/mL
C[C@@H](n1cnc2cc(Oc3ccc(Cl)cc3)ccc2c1=O)[C@](O)(Cn1cncn1)c1ccc(F)cc1F |  | 76 strains | MIC | 80 µg/mL
CCC(C)CC(C)CCCCCCCCC(=O)N[C@H]1C[C@@H](O)[C@@H](OCCN)NC(=O)[C@@H]2[C@@H](O)CCN2C(=O)[C@H]([C@@H](O)CCN)NC(=O)[C@H]([C@H](O)[C@@H](O)c2ccc(O)cc2)NC(=O)[C@@H]2C[C@@H](O)CN2C(=O)[C@H]([C@H](C)O)NC1=O |  | 50 isolates | MIC90 | 0.39 µg/mL
Cc1nc2cc(Cl)c(Cl)cc2n1[C@@H]1O[C@H](CO)[C@@H](O)[C@H]1O |  | 52 strains | MIC50 | 2 µg/mL
Cc1c(S(=O)(=O)c2ccccc2)[n+](=O)c2cc(Cl)ccc2n1[O-] |  | Clinical isolate 1 | MIC | 62.5 µg/mL
Cc1c(O)cccc1C(=O)N[C@@H](CSc1ccccc1)[C@H](O)CN1C[C@H]2CCCC[C@H]2C[C@H]1C(=O)NC(C)(C)C |  | I158E | MIC | 64 µg/mL
CCC(C)n1ncn(-c2ccc(N3CCN(c4ccc(OC[C@H]5CO[C@](Cn6cncn6)(c6ccc(Cl)cc6Cl)O5)cc4)CC3)cc2)c1=O |  | 40 isolates azole-susceptible | MIC50 | 0.01 µg/mL
Cc1c(Cl)[n+](=O)c2cc(Cl)ccc2n1[O-] |  | Clinical isolate 15 | MIC | 15.6 µg/mL
C[C@@H](n1cnc2ccc(Cl)cc2c1=O)[C@](O)(Cn1cncn1)c1ccc(F)cc1F |  | 76 strains | MIC | 0.63 µg/mL
C[C@H]1[C@H](O)[C@@H](C)/C=C/C=C/C=C/C=C/C=C/C=C/C=C/[C@H](O[C@@H]2O[C@H](C)[C@@H](O)[C@H](N)[C@@H]2O)C[C@@H]2O[C@](O)(C[C@@H](O)C[C@@H](O)CC[C@H](O)[C@@H](O)C[C@@H](O)CC(=O)O[C@H]1C)C[C@H](O)[C@H]2C(=O)O |  | ATCC64546 | MIC | 0.5 µg/mL
CC(=O)N1CCN(c2ccc(OCC3COC(Cn4ccnc4)(c4ccc(-c5ccccc5)cc4)O3)cc2)CC1 |  | 44 strains | MIC50 | 32 µg/mL
COC1CC2CCC(C)C(O)(O2)C(O)C(O)N2CCCCC2C(=O)OC(C(C)CC2CCC(O)C(OC)C2)CC(=O)C(C)/C=C(\C)C(O)C(OC)C(=O)C(C)CC(C)/C=C/C=C/C=C/1C |  | TOR1-1/TOR1 | MFC | >100 µg/mL
O=[n+]1c(Sc2ccccc2)c(CBr)n([O-])c2ccccc21 |  | Clinical isolate 1 | MIC | 7.8 µg/mL
C[N+](C)(COC1CCCCCCC1)Cc1cc(N=Nc2ccc(Cl)cc2)ccc1O |  |  | MIC | 268 µM
CC(C)(O)c1cn(-c2ccc(Cl)cc2)nn1 | broth dilution | URM 4987 | MIC | 128 µg/mL
C[C@H]1[C@H](O)[C@@H](C)/C=C/C=C/C=C/C=C/C=C/C=C/C=C/[C@H](O[C@@H]2O[C@H](C)[C@@H](O)[C@H](N)[C@@H]2O)C[C@@H]2O[C@](O)(C[C@@H](O)C[C@@H](O)CC[C@H](O)[C@@H](O)C[C@@H](O)CC(=O)O[C@H]1C)C[C@H](O)[C@H]2C(=O)O |  | 50 isolates | MIC90 | 0.1 µg/mL
C[C@H]([C@](O)(Cn1cncn1)c1ccc(F)cc1F)S(C)(=O)=O |  | 76 strains | MIC | 20 µg/mL
CCC(C)n1ncn(-c2ccc(N3CCN(c4ccc(OC[C@H]5CO[C@](Cn6cncn6)(c6ccc(Cl)cc6Cl)O5)cc4)CC3)cc2)c1=O |  | 166 isolates | MIC50 | 0.03 µg/mL
Cc1ccc(N=Nc2ccc(O)c(C[N+](C)(C)COC3CCCCCCCCCCC3)c2)cc1 |  |  | MIC | 1994 µM
C=CCSS(=O)CC=C | broth dilution | Clinical Isolate 0163 | MIC50 | 3.13 µg/mL
C[C@H]1[C@H](O)[C@@H](C)/C=C/C=C/C=C/C=C/C=C/C=C/C=C/[C@H](O[C@@H]2O[C@H](C)[C@@H](O)[C@H](N)[C@@H]2O)C[C@@H]2O[C@](O)(C[C@@H](O)C[C@@H](O)CC[C@H](O)[C@@H](O)C[C@@H](O)CC(=O)O[C@H]1C)C[C@H](O)[C@H]2C(=O)O | broth dilution | 33 | EC50 | 2 µM
Nc1[nH]c(=O)ncc1F |  | Fluconazole-resistant | MIC50 | 0.12 µg/mL
C[C@@H](N1CNc2cc(Cl)ccc2C1=O)[C@](O)(Cn1cncn1)c1ccc(F)cc1F |  | 60 strains | MIC | 0.07 µg/mL
O=C(OCC1COC(Cn2ccnc2)(c2ccc(-c3ccccc3)cc2)O1)c1ccccc1 |  | 44 strains | MIC90 | 64 µg/mL
C[C@@H](n1cnc2ncccc2c1=O)[C@](O)(Cn1cncn1)c1ccc(F)cc1F |  | 76 strains | MIC | 40 µg/mL
CCOc1cc2c(cc1F)n([O-])c(C)c(S(=O)(=O)c1ccccc1)[n+]2=O |  | Clinical isolate 6 | MIC | 15.6 µg/mL
C=CCc1ccc(O)c(OC)c1 | turbidity | 3178 | MIC90 | 495 µg/mL
N=C(N)c1ccc2oc(/C=C/C=C/C=C/c3cc4cc(C(=N)N)ccc4o3)cc2c1 |  |  | MIC | >60 µg/mL
Cc1ccc(N=Nc2ccc(O)c(C[N+](C)(C)COCC3CCC(C)CC3)c2)cc1 |  |  | MBC | 289 µM
COc1cc(O)c2c(c1)C(=O)c1c(cc3c(c1O)-c1c(cc(C)c(C(=O)NC(CO)C(=O)O)c1O)[C@H](OC1OC(C)C(O)C(OC4OCC(O)C(O)C4O)C1O)C3O)C2=O |  | AD 83/004 (azole-resistant) | MIC | 4 µg/mL
C[C@H]1[C@H](O)[C@@H](C)/C=C/C=C/C=C/C=C/C=C/C=C/C=C/[C@H](O[C@@H]2O[C@H](C)[C@@H](O)[C@H](N)[C@@H]2O)C[C@@H]2O[C@](O)(C[C@@H](O)C[C@@H](O)CC[C@H](O)[C@@H](O)C[C@@H](O)CC(=O)O[C@H]1C)C[C@H](O)[C@H]2C(=O)O |  | 40 isolates azole-susceptible | MIC90 | 0.2 µg/mL
CC[C@@H]([C@H](C)O)n1ncn(-c2ccc(N3CCN(c4ccc(OC[C@@H]5CO[C@@](Cn6cncn6)(c6ccc(F)cc6F)C5)cc4)CC3)cc2)c1=O |  | 166 isolates | MIC90 | 0.25 µg/mL
C[C@@H](n1cnc2c(Cl)cc(Cl)cc2c1=O)[C@](O)(Cn1cncn1)c1ccc(F)cc1F |  | 406 strains | MIC | ≤0.03 µg/mL
OC(Cn1cncn1)(Cn1cncn1)c1ccc(F)cc1F |  | 50 isolates | MIC50 | 0.16 µg/mL
N=C(N)c1ccc(NC(=O)c2cc3cc(C(=N)N)ccc3o2)cc1 |  |  | MIC | >60 µg/mL
CCCCCOC[N+](C)(C)Cc1cc(N=Nc2ccc(C)cc2)ccc1O |  |  | MBC | 308 µM
C[C@@H](n1cnc2cc(S(=O)(=O)c3ccccc3)ccc2c1=O)[C@](O)(Cn1cncn1)c1ccc(F)cc1F |  | 406 strains | MIC | ≤0.03 µg/mL
CS(=O)(=O)OC[C@H]1CO[C@](Cn2ccnc2)(c2ccc(-c3ccccc3)cc2)O1 |  | 44 strains | MIC50 | >256 µg/mL
C[C@@H](n1cnc2cc(Cl)ccc2c1=O)[C@](O)(Cn1cncn1)c1ccc(F)cc1F |  | 76 strains | MIC | ≤0.03 µg/mL
NC(N)=Nc1ccc(-c2cc3cc(N=C(N)N)ccc3o2)cc1 |  |  | MIC | 60 µg/mL
OC[C@H]1CO[C@](Cn2ccnc2)(c2ccc(-c3ccccc3)cc2)O1 |  | 44 strains | MIC90 | 128 µg/mL
C[C@@H](n1cnc2cc(C#N)ccc2c1=O)[C@](O)(Cn1cncn1)c1ccc(F)cc1F |  | 60 strains | MIC | 0.07 µg/mL

Again, the opening 6 rows:

C[C@H]1[C@H](O)[C@@H](C)/C=C/C=C/C=C/C=C/C=C/C=C/C=C/[C@H](O[C@@H]2O[C@H](C)[C@@H](O)[C@H](N)[C@@H]2O)C[C@@H]2O[C@](O)(C[C@@H](O)C[C@@H](O)CC[C@H](O)[C@@H](O)C[C@@H](O)CC(=O)O[C@H]1C)C[C@H](O)[C@H]2C(=O)O ; strain: 13 strains (fluconazole-resistant) ; endpoint: MIC90 ; result: 0.25 µg/mL
NC(N)=Nc1ccc(-c2cc3cc(N=C(N)N)ccc3s2)cc1 ; endpoint: MIC ; result: 10 µg/mL
COC1CC2CCC(C)C(O)(O2)C(=O)C(=O)N2CCCCC2C(=O)OC(C(C)CC2CCC(O)C(OC)C2)CC(=O)C(C)/C=C(\C)[C@@](O)(c2ccc(C)s2)C(OC)C(=O)C(C)CC(C)/C=C/C=C/C=C/1C ; strain: WILD TYPE ; endpoint: MFC ; result: >100 µg/mL
C[C@@H](n1cnc2cc(Oc3ccc(Cl)cc3)ccc2c1=O)[C@](O)(Cn1cncn1)c1ccc(F)cc1F ; strain: 76 strains ; endpoint: MIC ; result: 80 µg/mL
CCC(C)CC(C)CCCCCCCCC(=O)N[C@H]1C[C@@H](O)[C@@H](OCCN)NC(=O)[C@@H]2[C@@H](O)CCN2C(=O)[C@H]([C@@H](O)CCN)NC(=O)[C@H]([C@H](O)[C@@H](O)c2ccc(O)cc2)NC(=O)[C@@H]2C[C@@H](O)CN2C(=O)[C@H]([C@H](C)O)NC1=O ; strain: 50 isolates ; endpoint: MIC90 ; result: 0.39 µg/mL
Cc1nc2cc(Cl)c(Cl)cc2n1[C@@H]1O[C@H](CO)[C@@H](O)[C@H]1O ; strain: 52 strains ; endpoint: MIC50 ; result: 2 µg/mL

Neighbouring rows are from separate reports. ECn is the concentration giving n% inhibition of infection, replication or growth. MIC50, MIC90 and the like: level of inhibition, or share of isolates inhibited.